This data set deals with glutamate racemase (GR) from B. subtilis (Bacillus subtilis, UniProt P94556). The note with it: from log(Ki) and calculated logP (MarvinSketch).

By UniProt entry, the sequences of proteins in these tests, tags left out. Where a name states a change or a piece, a line headed by the entry shows the natural chain unless it says otherwise.
UniProt P94556: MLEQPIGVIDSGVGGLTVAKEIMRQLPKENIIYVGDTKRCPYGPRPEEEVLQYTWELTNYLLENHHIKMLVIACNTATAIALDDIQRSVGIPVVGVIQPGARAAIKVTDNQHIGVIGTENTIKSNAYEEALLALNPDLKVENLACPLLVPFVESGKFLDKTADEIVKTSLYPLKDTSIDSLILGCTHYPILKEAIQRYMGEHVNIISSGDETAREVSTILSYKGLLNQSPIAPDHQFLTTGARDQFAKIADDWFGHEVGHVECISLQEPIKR

Take “7-fluoro-2-sulfo-1H-benzo[d]imidazole-5-carboxylic acid [Compound 4]”: the “LiPE (lipophilic efficiency)” value is given as 6.0.

Values taken from patent US20160115136A1, “COMPOUNDS, COMPOSITIONS COMPRSING SAME, AND METHODS RELATED THERETO” (UNIVERSITY OF IOWA RESEARCH FOUNDATION, priority 2013, published 2016).
